The numbers were not newly measured in US20110086877A1 (priority 2005, published 2011), which cites them from elsewhere.

By UniProt entry, the sequences of proteins in these tests, tags left out. Residues count along the entry.
UniProt P0DPI0, 2-448 limits assumed: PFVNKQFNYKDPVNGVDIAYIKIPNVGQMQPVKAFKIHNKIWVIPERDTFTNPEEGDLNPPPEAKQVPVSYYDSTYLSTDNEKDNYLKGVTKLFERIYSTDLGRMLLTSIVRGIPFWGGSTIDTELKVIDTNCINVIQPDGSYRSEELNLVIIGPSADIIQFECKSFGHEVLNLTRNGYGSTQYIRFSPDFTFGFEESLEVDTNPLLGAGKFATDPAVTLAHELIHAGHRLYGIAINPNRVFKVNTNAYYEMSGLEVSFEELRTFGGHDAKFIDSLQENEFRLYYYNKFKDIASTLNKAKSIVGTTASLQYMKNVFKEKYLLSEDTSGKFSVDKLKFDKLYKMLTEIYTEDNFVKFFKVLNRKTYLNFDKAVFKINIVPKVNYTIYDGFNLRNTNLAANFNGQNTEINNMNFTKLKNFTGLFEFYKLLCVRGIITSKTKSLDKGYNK

Read-outs that look alike come from different tables or passages of the source.

For this series, the target named is BoNT/A LC (Clostridium botulinum, UniProt P0DPI0). The note with it: cited from earlier work.

For orientation: Ki means the dissociation constant of the complex between target and ligand, obtained from inhibition or displacement. As for “2-mercapto-3-phenylpropionyl-RATKML [mpp-RATKML]”, the Ki by setting is: (read-out: Ki (printed as "1")) 330 nM; (read-out: Ki) 300 nM.
